According to paper PMC3020944, “Structure-Activity Relationship of Cinnamaldehyde Analogs as Inhibitors of AI-2 Based Quorum Sensing and Their Effect on Virulence of Vibrio spp”:
Construct, isoform or probe ends are uncertain for at least one entry. Weaker means in comparison with the reference protein, sequence or condition of that experiment.

Amino acid sequences for entries named in this document (tags omitted). A change or cut given only in a name is not applied to a line headed by its entry.
UniProt P21308: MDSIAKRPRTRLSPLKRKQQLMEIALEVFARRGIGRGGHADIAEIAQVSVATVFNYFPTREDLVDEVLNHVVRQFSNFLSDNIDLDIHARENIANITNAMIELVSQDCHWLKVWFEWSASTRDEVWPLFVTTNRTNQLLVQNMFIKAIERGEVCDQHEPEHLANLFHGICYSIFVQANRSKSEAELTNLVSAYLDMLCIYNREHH

Target: GST-LuxR (Vibrio harveyi) (UniProt P21308)
Assay: fluorescence anisotropy
Conditions: value only in Fig. 2B, 30°C, fluorescence polarisation, excitation 480 nm, emission 535 nm, binding buffer, duplex annealed in NaCl-Tris-EDTA, recombinant protein, protein details: GST, label: 5' fluorescein on strand 1

Measured: binding result

TATTGATAAATTTATCAATAA (double strand) [V. harveyi consensus LuxR binding sequence]
binds more weakly: 50 uM 2-nitro-cinnamaldehyde | 50 uM 3,4-dichloro-cinnamaldehyde | 50 uM (E)-2-nonenal | 50 uM (E)-2-pentenal | 50 uM (E)-3-decen-2-one | 50 uM (E)-4-phenyl-3-buten-2-one | 50 uM cinnamaldehyde
